Compound potency records, mixed from different reports. Data source: NIAID ChemDB in PubChem.

Common to all: tests in culture; agent: HIV-1; method: cytopathic effect / MTT; measure: EC50

ECn: concentration that inhibits the pathogen or its effect by n%. Lines come from different laboratories, so protocols vary. Blank or dashed fields: not listed here.

SMILES	cell line	mutations	strain	value
CCCc1c(Sc2cccc3ccccc23)n(COCc2ccccc2)c(=O)[nH]c1=O	MT-4	-	IIIB	0.83 µM
O=C1c2ccccc2C(=O)N1CCOC(=S)N(C(=O)c1ccco1)c1ccc(Cl)cc1	C8166	-	IIIB	<0.005 µM
Cc1ccnc2c1NC(=O)c1cccnc1N2C1CC1	MT-4	RT-G190A	Recombinant	7.943 µM
Nc1nc(NC2CC2)c2ncn([C@H]3C=C[C@@H](CO)O3)c2n1	PBMC	-	LAI	1.1 µM
c1cc(CN2CCCNCCCNCCNCCC2)cc(CN2CCCNCCCNCCNCCC2)c1	MT-4	AMD3100-resistant	NL4-3	>25 µg/mL
Cc1ccnc2c1NC(=O)c1cccnc1N2C1CC1	MT-4	-	IIIB	0.05 µM
CCOCn1c(Sc2cccc3ccccc23)c(CC(C)C)c(=O)[nH]c1=O	MT-4	-	IIIB	7.37 µM
Cc1cccc(S(=O)(=O)c2c(C(=O)NNCCO)[nH]c3ccc(Cl)cc23)c1	MT-4	-	IIIB	0.007 µM
CN(C)c1cccc2c1nc(-c1c(F)cccc1F)n2Cc1c(F)cccc1F	MT-4	RT-V108I	-	3.2 µM
O=C1c2ccccc2C(=O)N1CCOC(=S)N(C(=O)c1ccco1)c1ccc([N+](=O)[O-])cc1	MT-4	RT-Y181C	N119 nevirapine-resistant (RT Y181C)	58 µM
COC(=O)c1cc(CN2CCCNCCNCCCNCC2)ccc1CN1CCCNCCNCCCNCC1	MT-4	-	RF	1.4 µg/mL
C1CNCCNCCCN(CCCN2CCCNCCNCCCNCC2)CCNC1	MT-4	-	NL43)(JM3100r)	96 µg/mL
C1CNCCNCCCN(CCCN2CCCNCCNCCCNCC2)CCNC1	MT-4	-	AOM	0.19 µg/mL
CCc1c(Sc2cc(C)cc(C)c2)n(COCCO)c(=S)[nH]c1=O	MT-4	-	IIIB	0.0075 µM
O=C1c2ccccc2C(=O)N1CCOC(=S)N(C(=O)c1ccccc1)c1ccc(Cl)cc1	C8166	-	IIIB	<0.13 µM
O=C(/C=C/c1ccc(O)c(O)c1)/C=C/c1ccc(O)c(O)c1	MT-4	-	-	>38 µM
CC(C)=CCN1Cc2cc(Cl)cc3[nH]c(=S)n(c23)C[C@@H]1C	CEM + CEM-SS	-	KELL	0.183 µM
CC(C)c1c(Sc2cccc3ccccc23)n(COCc2cccc(F)c2)c(=O)[nH]c1=O	MT-4	-	IIIB	0.11 µM
Clc1cc(CN2CCCNCCNCCCNCC2)c(Cl)cc1CN1CCCNCCNCCCNCC1	SupT1 + Sup-T1	-	168.10	0.048 µg/mL
CCc1c(Sc2ccc3ccccc3c2NC(C)=O)n(COCc2ccccc2)c(=O)[nH]c1=O	MT-4	-	IIIB	8.78 µM
Cc1cc(C)cc(S(=O)(=O)c2c(C(=O)NNCCO)[nH]c3ccc(Cl)cc23)c1	MT-4	RT-K103N Y181C	-	3.2 µM
CN1CCN(C2=c3cc(O)ccc3=Nc3ccc(Cl)cc3N2O)CC1	CEM-T4 + CEM	-	IIIB	>100 µg/mL
Cc1cn([C@H]2C[C@H](N=[N+]=[N-])[C@@H](CO)O2)c(=O)[nH]c1=O	MT-4	-	RF	0.02 µM
Cc1c(Sc2ccccc2)n(COCCO)c(=O)[nH]c1=O	MT-4	-	RF	12 µM
Cc1cn([C@H]2C=C[C@@H](CO)O2)c(=O)[nH]c1=O	MT-4	-	IIIB	0.034 µM
CN1CCN(CC/C=C2/c3ccccc3Sc3ccc(S(=O)(=O)N(C)C)cc32)CC1	MT-2	-	IIIB	>5.6 µg/mL
Cc1cc(C)cc(Cc2c(CC(C)C)c(C)[nH]c(=O)c2N(C)C)c1	MT-4	RT-Y188L	Recombinant	2.512 µM
Cc1cn([C@H]2C=C[C@@H](COC(=O)NCCSC(=O)OC[C@@H]3C=C[C@H](n4cc(C)c(=O)[nH]c4=O)O3)O2)c(=O)[nH]c1=O	MT-4	RT-K103N Y181C	NNRTI-resistant (RT K103N Y181C)	>20 µM
c1cc(CCN2CCCNCCNCCCNCC2)ccc1CCN1CCCNCCNCCCNCC1	MT-4	-	AOM	5.6 µg/mL
Cc1cn([C@H]2C[C@H](N=[N+]=[N-])[C@@H](CO)O2)c(=O)[nH]c1=O	MT-4	-	NL43)(JM3100r)	0.0016 µg/mL
CC(=O)N(C)c1cccc2c1nc(-c1c(F)cccc1F)n2Cc1c(F)cccc1F	MT-4	RT-L100I	-	0.16 µM
COc1ccc2c(c1)N(C(=O)OC(C)C)[C@@H](CSC)C(=S)N2	MT-4	RT-A98S E138A	Recombinant mutant	0.003 µM
CNc1cccc2c1nc(-c1c(F)cccc1F)n2Cc1c(F)cccc1F	MT-4	RT-K103N	-	10.2 µM
Nc1ccn([C@H]2CC[C@@H](CO)O2)c(=O)n1	MT-4	RT-A98S	Recombinant mutant	1.137 µM
CCOCn1c(Sc2cccc3ccccc23)c(CC)c(=O)[nH]c1=O	MT-4	-	IIIB	0.15 µM
c1ccc2c(CN3CCCNCCNCCCNCC3)cc(CN3CCCNCCNCCCNCC3)cc2c1	MT-4	-	AOM	0.22 µg/mL
Cc1cn([C@H]2C[C@H](N=[N+]=[N-])[C@@H](COC(=O)NCCSC(=O)OC[C@@H]3CC[C@H](n4cnc5c(=O)[nH]cnc54)O3)O2)c(=O)[nH]c1=O	MT-4	RT-Y181C	NNRTI-resistant (RT Y181C)	0.2 µM
CCc1c(Sc2cccc3ccccc23)n(COCc2cccc(F)c2)c(=O)[nH]c1=O	MT-4	-	IIIB	0.21 µM
CCCc1cc(=O)oc2c3c(c4c(c12)OC(C)(C)C=C4)O[C@@H](C)[C@H](C)[C@H]3O	MT-2	-	A-17 (TIBO-RS)	>0.2 µM
Cc1ccc(S(=O)(=O)c2c(C(=O)NNCCO)[nH]c3ccc(Cl)cc23)c(C)c1	MT-4 + C8166	-	IIIB	0.08 µM
O=C(CCCN1CCC(O)(c2ccc(Cl)cc2)CC1)c1ccc(F)cc1	MT-2	-	IIIB	>20 µg/mL
CCOCn1c(Sc2cc(C)cc(C)c2)c(CC)c(=O)[nH]c1=S	MT-4	-	A012D	0.0027 µM
O=C(/C=C/c1ccc(O)cc1)c1ccc(O)cc1O	MT-4	-	-	>7.4 µM
COC(=O)c1cccc2c1nc(-c1c(F)cccc1F)n2Cc1c(F)cccc1F	MT-4	RT-Y181C	-	8.4 µM
O=c1[nH]cnc2c1ncn2[C@H]1CC[C@@H](CO)O1	MT-4	-	IIIB Recombinant wild type	1.799 µM
CCOCn1c(Cc2cc(C)cc(C)c2)c(CC)c(=O)[nH]c1=O	MT-4	-	HE	0.0076 µM
O=C1c2ccccc2C(=O)N1CCOC(=S)N(C(=O)c1ccccc1)c1ccccc1	C8166	-	IIIB	<0.8 µM
Cc1cn([C@H]2C=C[C@@H](COC(=O)NCCSC(=O)OC[C@@H]3CC[C@H](n4cnc5c(=O)[nH]cnc54)O3)O2)c(=O)[nH]c1=O	MT-4	-	WT	43 µM
COc1ccc(/C=C/C(=O)/C=C(O)/C=C/c2ccc(OC)c(OC)c2)cc1OC	MT-4	-	-	>4.1 µM
Nc1nc2c(ncn2[C@H]2C=C[C@@H](CO)C2)c(=O)[nH]1	MT-2	-	IIIB	0.71 µM
CC(C)=CCN1Cc2cc(Cl)cc3[nH]c(=S)n(c23)C[C@@H]1C	MT-4	-	NL4-3	0.0003 µg/mL
c1ccc(C2OCc3nc4ccccc4n32)cc1	CEM	-	IIIB	8.46 µM
Cc1cn([C@@H]2O[C@H](CO[Si](C)(C)C(C)(C)C)C3(OS(=O)(=O)C=C3N)[C@H]2O[Si](C)(C)C(C)(C)C)c(=O)n(C)c1=O	MT-4	RT-E138A	Recombinant mutant	0.646 µM
O=C1/C(=C/c2ccc(O)c(O)c2)CCC/C1=C\c1ccc(O)c(O)c1	MT-4	-	-	>7.4 µM
Cc1cc(C)cc(S(=O)(=O)c2c(C(N)=O)[nH]c3ccc(Cl)cc23)c1	MT-4	RT-Y181C	-	1.2 µM
O=S(=O)(O)OCC1OC2OC3C(COS(=O)(=O)O)OC(OC4C(COS(=O)(=O)O)OC(OC5C(COS(=O)(=O)O)OC(OC6C(COS(=O)(=O)O)OC(OC7C(COS(=O)(=O)O)OC(OC8C(COS(=O)(=O)O)OC(OC1C(OS(=O)(=O)O)C2OS(=O)(=O)O)C(OS(=O)(=O)O)C8OS(=O)(=O)O)C(OS(=O)(=O)O)C7OS(=O)(=O)O)C(OS(=O)(=O)O)C6OS(=O)(=O)O)C(OS(=O)(=O)O)C5OS(=O)(=O)O)C(OS(=O)(=O)O)C4OS(=O)(=O)O)C(OS(=O)(=O)O)C3OS(=O)(=O)O	MT-4	-	NL4-3	0.3 µg/mL
COc1cc(CN2CCCNCCNCCCNCC2)c(OC)cc1CN1CCCNCCNCCCNCC1	MT-4	-	RF	0.07 µg/mL
Fc1cccc(F)c1Cn1c(-c2c(F)cccc2F)nc2c(Br)cccc21	MT-4	RT-V108I	-	3.2 µM
CCCc1cc(=O)oc2c3c(c4c(c12)OC(C)(C)C=C4)O[C@H](C)[C@@H](C)/C3=N/O	CEM + CEM-SS	-	IIIB	>15.8 µM
O=C(/C=C(O)/C=C/c1ccc(O)c(O)c1)/C=C/c1ccc(O)c(O)c1	MT-4	-	-	>17 µM
CCCc1cc(=O)oc2c(C(=O)C(C)(C)C(C)O)c(O)c3c(c12)OC(C)(C)C=C3	CEM + CEM-SS	-	IIIB	>37 µM
CC(=O)Nc1cccc2c1nc(-c1c(F)cccc1F)n2Cc1c(F)cccc1F	MT-4	RT-K101E	-	>20 µM
Fc1cccc(F)c1C1SCc2nc3ccccc3n21	CEM	RT-Y181C	Pyridinone-resistant (RT Y181C)	13.87 µM
NC(N)=NCCC[C@H](N)C(=O)NC[C@H]1O[C@H](O[C@H]2C(O)[C@@H](O[C@H]3O[C@H](CO)[C@@H](O)[C@H](NC(=O)[C@@H](N)CCCN=C(N)N)[C@H]3O)[C@H](NC(=O)[C@@H](N)CCCN=C(N)N)C[C@@H]2NC(=O)[C@@H](N)CCCN=C(N)N)[C@H](O)[C@@H](O)[C@@H]1O	MT-4	-	AMD3100-resistant	>113 µM
CCc1cccc2c1nc(-c1c(F)cccc1F)n2Cc1c(F)cccc1F	MT-4	-	NL4-3	0.5 µM
Oc1ccc2c(c1)N=C(N1CCNCC1)c1ccccc1N2	CEM-T4 + CEM	-	IIIB	37 µg/mL
Cc1ccnc2c1NC(=O)c1cccnc1N2C1CC1	MT-4	RT-Y181C	-	10 µM

The last 5 rows once more:

SMILES,cell line,mutations,strain,value
Fc1cccc(F)c1C1SCc2nc3ccccc3n21,CEM,RT-Y181C,Pyridinone-resistant (RT Y181C),13.87 µM
NC(N)=NCCC[C@H](N)C(=O)NC[C@H]1O[C@H](O[C@H]2C(O)[C@@H](O[C@H]3O[C@H](CO)[C@@H](O)[C@H](NC(=O)[C@@H](N)CCCN=C(N)N)[C@H]3O)[C@H](NC(=O)[C@@H](N)CCCN=C(N)N)C[C@@H]2NC(=O)[C@@H](N)CCCN=C(N)N)[C@H](O)[C@@H](O)[C@@H]1O,MT-4,-,AMD3100-resistant,>113 µM
CCc1cccc2c1nc(-c1c(F)cccc1F)n2Cc1c(F)cccc1F,MT-4,-,NL4-3,0.5 µM
Oc1ccc2c(c1)N=C(N1CCNCC1)c1ccccc1N2,CEM-T4 + CEM,-,IIIB,37 µg/mL
Cc1ccnc2c1NC(=O)c1cccnc1N2C1CC1,MT-4,RT-Y181C,-,10 µM